From article PMC6154617 come the findings set out here.

Where a protein sequence is shown, tags need not be part of it. The exact form of at least one protein or probe is not confirmed.

The series addresses T1, rRex (SsRex) (Streptococcus suis serotype 2 strain SS2-1) (UniProt A0A0H3MUY0).
T1 sequence (looked up): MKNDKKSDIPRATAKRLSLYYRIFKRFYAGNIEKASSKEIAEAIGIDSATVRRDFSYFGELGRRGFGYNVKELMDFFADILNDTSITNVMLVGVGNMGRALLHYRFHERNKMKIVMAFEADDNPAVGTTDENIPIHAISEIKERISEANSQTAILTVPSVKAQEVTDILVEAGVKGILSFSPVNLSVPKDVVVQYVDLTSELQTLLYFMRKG
Briefly: EMSA. The following applies: 20 mM Tris pH 8.0, 1 mM EDTA, 75 mM KCl, 2 mM DTT, 10% glycerol, 20 min at 30 C (plus 15 min with NAD+/NADH), 6% PAGE in 0.5x TBE, ethidium bromide, recombinant protein, residues 1-212, protein details: His tag (pET-28a, HisTrap), probe letters rebuilt from the primers and the genome. Background: Mobility shift assays separate free from complexed probe on a gel.

As for “AGCCATAGGGCTACGACAAATATTTCCAAGACAGACAAAAACGATTTTTTTCATAGATACTCCTTTCGTGACATAAGAAAAGAGAAGGTAGACTCGACAGGTAAATGTCTGAGTTCCCCTCTCTTGCATATTTTTGTTCGGGCTATAGGTAAAAGACCAAATTAAGTGTAATGTTCATTATCAAACAGTGCACGACCAATCCTACCTATATTGAACTCTTTGTTTATTTCTCTTCTTTGTCGAAAGCATTTTTGATGCCGTTAATGGCACCTTCAAGCCCATCTTTTGCATCTTCGACTAGCTCTTTTGCTTTGCCAATTCCTTTCTCAACAAGTCCTTCAACTTCGATTTCCTTGTCGCCGGTCAGCTTACCAATTACCTCTTTTGCAGATCCAGATAGCTGTTCTAGTTTTGCGTCAAATTTTTCTTCTGACATAAAATCCCTCCTCGATATACACATATGGGGGCGATGATTTTCTAAAAAGAAAATCACATACTATTCTTACTTACTAGTCTAACGTATATAAGTTAATATAGCAAGGAATTTGTCTGCCAATAATTCAGAGGAGGAGGGATAATTCTTGCAATTTTTTCTTCTTTTATTTATAATTATTATAAATAAAAGAAAGGGTGATATATGATGAAACAAAAATATTATCAATCTCCAGCAGAAATTGCGTCTTTCAGCCCGCGTCCATCACTGGCTGATTCTAAGGCTGTTTTGAATCAAG (double strand) [Pdpr]”, the binding result was “binds”.

Consider “CAATTTTCTTTCGGGGAAAACAACTTTTTAACCACCCATGGGTTCCCCCCAAATATATTTGCAAACAATTTGTTAACTTTTCCCCAAGGTAATCCAACAATTTTTAATTTAATTGGAAAAAAAAAATGGTAAATTTTTCCAAATTTTTCCGGTTTGGTTTGGAAAAGCCCTTACTTTTTCCTGTTTTCAGAAAACGTTCAGATTTGTTTCTGCTTTGTTTGGTCGAAAAATACATAAAGTAAGACAAATCTTTATCATTTATTCTTTCTCTAACATTTACGATACTAGTTTATCAAGAAAACGCTTCCATGTAAATAGATTTTTTTGAAAATTTTGTAGTAATTACGTGATAATTTTCAATTTTATATTCATTTGTCCCTCCTTTTCTACTCTTGCATTTTTGTTCACATTGTGATATTCTTAACAATATAAAACAACTATATTAACACATCCAAAAATGTACATAAAATATTAAAACAGGAGGTCTGCTTATGAAAGCAG (double strand) [PadhE]”, for which the binding result is on record as “binds”.

Turning to “CACTTTAGACTCCTTTATTTCGATAGAATACGCTTTATCGATTATTTATATATTAAACAGTTCTTTATTCTATTCTAGTCCAAGTTTGTGAAAAAATCAACAGATTGATTTTAAAAAAAGATTAAACAGGAAACTGTCTAATCTAGTGTTTGTAAATAGCGATAGAGATCTCCGATTGTCCCTTTGTAATCCAGAGCTTGTCCGTTTTGTGTAATGCTGGTAACTGGATAATAGTCTGGGAGGGTTAAGCAACCGGAAAAAGCCAGAATGGCTGCATCCTTATTCTCAAATGTTTGGATACGTTCTTGCTTGTAAGCGTCAAGATAGTGAATT (double strand) [Prex]”, the binding result is, setting by setting: (10 mM NAD+, 50 ng rRex) “binds”; (10 mM NADH, 50 ng rRex) “binds”; (no added NAD(H)) “binds”.

For the sequence “CCGTCACCGACAAGGATTACTTTTTTGTGTTGTTTAGTTGCAGTCATTGCTAAACATCTCCTTAGTTTTATTTGGGGATGACTTCATCCCAACCATAATACATTCTAGCATGTTTTAAGCTTTTTGTCACTTGTGAAAGCGCCTTTGAAAATGTTTACATGCTAGTTTCCAACAAAGAAATTTATTCGCCAATATGGTATAATAGAAGCACAATGACTGTTGAAAGAGGCATATAATGCAAGATAAAAATTTAGTAACGGTTAATCTGACCAATGAGATGAAATCATCCTTCATCGACTATGCGATGAGTGTTATCGTTTCACGTGCTCTGCCTGATGTACGTGATGGTCTGAAGCCGGTTCATCGCCGTATTTTGTATGGGATGAATGAATTAGGGATTACACCGGATAAACCACATAAAAAATCAGCCCGTATCACAGGGGATGTTATGGGTAAATATCACCCGCATGGAGATAGTGCGA (double strand) [Pldh]”, the binding result (50 mM NAD+, 50 ng rRex, better than ParcA) is reported as “binds” and the binding result (no added NAD(H)) is on record as “binds”.

“GACTTACCTCCACACGCCACTAAAAACAAAACAGCAAGTAGACTCATTAATAAGCCTAACCAAGCTTTCTTTTTCATATAAACCTCCAATTTTTATCTGGTATTAGTATTATACAAGATTGTGAAATGTTTTTCAATTTGTTTTGAAATATTTTCACAAACATGAACAAAAAAATGTATGATATCCGCTTCATACATTCTTAAAACTATTTACTGCCCTTGAAGAGCTAAAAAATTCTCTATTTCGGATAGCGTTGCTTGGCTCCCTTTACGGAGTATTCCAGATAATTTACCTGATTTATAGTAGGTTAAGCTAGGAACCGTAGCAAGACCTTGACTCTGTCGAAATTGTTGTATTTTTCCATTCGGATCCGACTCGCTATCTAAATAGTAGATCGTCGCATGTGATTGCTCTACTGCCTCTGTTAATTTCGGAACAAAATCACGACAATAAGGGCATGTCTCACGACCTATGTATAATATAAATTCTTCCTCGTCTTGGACCTTTTGCTCCACTTCGTCTATC (double strand) [PfrdA]”: the binding result is reported as “binds”.

In the case of “GTACGCTTTCCTGCCTCTCATTTCCTCTTTACATCCATAGTTTAACAGAGCAAAAAAACAAAAACTTGAAAACGCTCACATTTATTTTGAGAAATTCTTCACATTTTTAACCTTATTTATAAATAATTATCGATTATATCATCTAAATTCTGCATAATTCTTTCCGTTATATCATTATATGAATTTTTATTTTTTTATAAAAAACAGAAACTTCAATGAGTTTCTGTCAAATTTTCTAAGAAATAATCAATATCTAAATAAGTTAACTGTTTATGGCTATAAGCTATTTTACCATCCTGCTTCAGTTGCTTCAAAACATGGCTAACCGTTTCCCGTGTCGTAGCTGCTAAACGCGAAATCTCTTGAATATGAATTTCAAATGGCAAGGTAGCAAACTGCTCTCGCTGGCACATATCCCAATAAAGAAGAGCCAAG (double strand) [ParcA]”, the binding result (no added NAD(H)) was “binds”.

Consider “TGTTCTGTCGGTAGGGAGCTTTCTGCCGGATAAACATTTGTCCGTATTTTTTCTTTTAAGTCATTATAAATTTCTTGGTATTTTTTCATCATTTCCTCGCAAATTCATCTGTCAAATAACATACAACTATCAACATTATAACAAAATTCATTTCAAAATTAAAAAAAACTAAGCAAAAACGCTTGCATTATTTTTTGAAATCGGATACAATGATAACACAAAAGAAATTTGTCCGTACAAATTTCAAAAAAGGACATGCTTCGAGAGATGTCTAAAAAATATAGGGTGACGGATTCCATAAGCCGTCTAGAAGGAAAAATATATGGGAAAATTTGAAAAAGAAGCCAAACAGCTCCTAGAAGCTATTGGCGGAAAAGAGAATGTCAATGCAGTAACACACTGTGCAACGCGCATGCGCTTTGTTCTTGCAGATGAGAAAAAAGCAAACGTAAAAGTCATCGAAGACATTCCAGCAGTAAAAGGAACATTTACCAACGCTGGTCAATTCCAAGTCATCATCGGTAACGATGTACCAATCTTCTACAATGACTTTACAGCTGTGTCTGGTATCGAAGGCGTATCAAAAGA (double strand) [PtreR]”, for which the binding result is “binds”.
